Amino acid sequences for entries named in this document (tags omitted). Residues count along the entry.
UniProt P16519, 110-638 limits assumed: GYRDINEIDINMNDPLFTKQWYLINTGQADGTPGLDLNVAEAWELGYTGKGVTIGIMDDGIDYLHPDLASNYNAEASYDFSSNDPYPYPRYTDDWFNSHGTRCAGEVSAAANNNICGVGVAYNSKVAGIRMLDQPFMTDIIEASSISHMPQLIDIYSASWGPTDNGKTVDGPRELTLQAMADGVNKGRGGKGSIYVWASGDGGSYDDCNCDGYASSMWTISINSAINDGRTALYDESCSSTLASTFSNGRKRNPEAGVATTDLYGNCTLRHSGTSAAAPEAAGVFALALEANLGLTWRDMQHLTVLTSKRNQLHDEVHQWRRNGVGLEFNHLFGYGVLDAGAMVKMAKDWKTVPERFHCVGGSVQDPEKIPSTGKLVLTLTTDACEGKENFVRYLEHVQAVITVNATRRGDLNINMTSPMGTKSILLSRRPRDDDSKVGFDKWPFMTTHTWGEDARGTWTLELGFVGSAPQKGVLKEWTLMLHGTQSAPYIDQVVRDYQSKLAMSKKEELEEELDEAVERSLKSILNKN
UniProt P09958, 108-794 limits assumed: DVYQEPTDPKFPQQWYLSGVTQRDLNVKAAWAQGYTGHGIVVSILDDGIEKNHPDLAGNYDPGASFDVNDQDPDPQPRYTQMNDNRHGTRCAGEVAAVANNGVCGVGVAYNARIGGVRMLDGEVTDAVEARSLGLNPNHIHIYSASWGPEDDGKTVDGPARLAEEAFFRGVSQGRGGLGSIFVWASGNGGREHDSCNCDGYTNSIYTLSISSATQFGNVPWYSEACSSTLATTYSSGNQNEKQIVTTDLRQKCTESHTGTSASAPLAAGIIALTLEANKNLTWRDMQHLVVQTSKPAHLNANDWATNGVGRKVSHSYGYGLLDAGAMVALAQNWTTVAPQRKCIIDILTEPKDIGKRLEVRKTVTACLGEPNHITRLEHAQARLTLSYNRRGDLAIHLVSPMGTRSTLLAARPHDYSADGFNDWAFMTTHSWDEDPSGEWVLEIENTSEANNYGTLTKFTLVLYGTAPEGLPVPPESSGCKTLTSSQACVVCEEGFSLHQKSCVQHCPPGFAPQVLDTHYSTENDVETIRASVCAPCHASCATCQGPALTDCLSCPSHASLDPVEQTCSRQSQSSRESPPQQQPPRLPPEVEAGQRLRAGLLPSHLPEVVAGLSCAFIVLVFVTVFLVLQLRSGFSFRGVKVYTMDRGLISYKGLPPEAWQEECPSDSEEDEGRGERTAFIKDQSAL
UniProt P29120, 111-753 limits assumed: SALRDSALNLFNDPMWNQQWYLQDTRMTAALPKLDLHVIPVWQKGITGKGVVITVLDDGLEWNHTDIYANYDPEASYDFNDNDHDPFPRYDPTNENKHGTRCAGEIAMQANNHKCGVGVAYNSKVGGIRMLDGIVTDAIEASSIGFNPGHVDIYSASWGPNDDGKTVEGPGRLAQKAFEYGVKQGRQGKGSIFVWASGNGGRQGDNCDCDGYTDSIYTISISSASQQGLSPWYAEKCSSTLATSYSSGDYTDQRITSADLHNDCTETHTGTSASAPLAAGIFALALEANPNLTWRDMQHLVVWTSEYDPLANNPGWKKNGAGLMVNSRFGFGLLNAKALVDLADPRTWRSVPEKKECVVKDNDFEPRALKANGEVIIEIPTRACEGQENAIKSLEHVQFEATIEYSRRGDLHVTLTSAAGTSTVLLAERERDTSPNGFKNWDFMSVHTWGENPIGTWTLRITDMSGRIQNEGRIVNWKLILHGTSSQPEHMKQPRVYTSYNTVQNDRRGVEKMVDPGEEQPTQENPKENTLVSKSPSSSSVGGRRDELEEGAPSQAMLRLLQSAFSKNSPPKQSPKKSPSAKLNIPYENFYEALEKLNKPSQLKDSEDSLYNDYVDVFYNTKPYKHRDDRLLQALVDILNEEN
UniProt Q16549, 142-785 limits assumed: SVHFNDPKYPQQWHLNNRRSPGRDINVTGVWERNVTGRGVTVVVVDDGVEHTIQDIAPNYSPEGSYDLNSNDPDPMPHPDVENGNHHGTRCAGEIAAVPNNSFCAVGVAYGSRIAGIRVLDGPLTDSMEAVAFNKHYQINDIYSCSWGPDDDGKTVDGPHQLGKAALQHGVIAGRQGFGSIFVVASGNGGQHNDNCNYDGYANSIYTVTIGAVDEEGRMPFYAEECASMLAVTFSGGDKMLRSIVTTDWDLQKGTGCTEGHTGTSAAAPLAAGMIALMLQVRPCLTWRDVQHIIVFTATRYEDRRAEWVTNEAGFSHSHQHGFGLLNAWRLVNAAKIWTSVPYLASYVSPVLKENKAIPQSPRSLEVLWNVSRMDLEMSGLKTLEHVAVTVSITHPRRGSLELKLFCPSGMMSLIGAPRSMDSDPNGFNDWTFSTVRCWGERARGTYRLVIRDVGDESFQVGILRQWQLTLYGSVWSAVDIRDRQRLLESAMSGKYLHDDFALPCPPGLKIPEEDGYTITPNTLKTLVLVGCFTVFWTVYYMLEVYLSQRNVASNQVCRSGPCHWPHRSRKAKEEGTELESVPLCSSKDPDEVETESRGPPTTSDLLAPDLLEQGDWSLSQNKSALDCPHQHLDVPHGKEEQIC

According to article PMC7287953, “Potential Therapeutic Targeting of Coronavirus Spike Glycoprotein Priming” (Molecules, 2020):

Tests used:
hPC2 = hPC2 (Homo sapiens, UniProt P16519); assay: Specificity for furin-like PCs: hPC2 inhibition; settings: read-out: IC50 hPC2, Table S2
Protocol: (§1) Inhibition of furin and hPC1/3 activity was measured in triplicate on Corning 3676 black 384-well assay plates by using a total volume of 20 µL and the following buffer conditions: 100 mM Hepes, 2 mM CaCl2, pH = 7.5. Pyr-RTKR-AMC (Peptide Institute, Inc., Osaka, Japan; catalog # 3159-v) was used as fluorescent substrate at 7 µM, while the furin concentration was 80 nM per reaction well. The steady-state rate of substrate hydrolysis was monitored continuously (excitation/emission wavelengths at 365/460 nm) at 25 °C using a VictorTMX5 plate reader (PerkinElmer, Waltham, MA, USA). Inhibition of trypsin from bovine pancreas was measured in triplicate on Corning 3676 black 384-well assay plates using a total volume of 20 µL and the following buffer conditions: 100 mM Hepes, 2 mM CaCl2, pH = 7.5. Pyr-RTKR-AMC (Peptide Institute, Inc., catalog # 3159-v) was used as fluorescent substrate at 7 µM, while the trypsin concentration was 10 nM per reaction well. Data analysis and curve fitting for all the enzymatic assays were performed using GraphPad Prism (version 4 for Windows, La Jolla, USA). Peptides and compound 1 were synthesized using standard solid phase peptide chemistry procedures and purified using HPLC at 95% purity (Figures S1 and S8; Supplementary Materials). Camostat (mesylate) was purchased from Cayman Chemicals (Ann Arbor, USA).

furin = furin (Homo sapiens, UniProt P09958); assay: Inhibition of furin activity, fluorescent substrate Pyr-RTKR-AMC; settings: read-out: IC50 Furin, Table S2
Protocol: as §1

hPC1/3 = hPC1/3 (Homo sapiens, UniProt P29120); assay: Inhibition of hPC1/3 activity, fluorescent substrate Pyr-RTKR-AMC; settings: read-out: IC50 hPC1/3, Table S2
Protocol: as §1

hPC7 = hPC7 (Homo sapiens, UniProt Q16549); assay: Specificity for furin-like PCs: hPC7 inhibition; settings: read-out: IC50 hPC7, Table S2
Protocol: as §1

`CC(C)[C@H](NS(=O)(=O)Cc1ccc(C(=N)N)cc1)C(=O)N[C@@H](CCCNC(=N)N)C(=O)NCc1ccc(C(=N)N)cc1` was tested, and the IC50 (hPC2) was 1.17 µM, the IC50 (furin) was 0.338 µM and the IC50 (hPC1/3) was 0.014 µM. The IC50 (hPC7) was 3.19 µM.
With `CC(C)[C@H](NS(=O)(=O)Cc1ccc(C(=N)N)cc1)C(=O)N[C@@H](Cc1ccc(NC(=N)N)cc1)C(=O)NCc1ccc(C(=N)N)cc1` the IC50 (hPC2) was greater than 30 µM, the IC50 (furin) was 12.7 µM and the IC50 (hPC1/3) was 0.483 µM. The IC50 (hPC7) was 14 µM.
For `CC(=O)N[C@@H](Cc1ccc(NC(=N)N)cc1)C(=O)N[C@H](C(=O)N[C@@H](CCCNC(=N)N)C(=O)NCc1ccc(C(=N)N)cc1)C(C)C`, the IC50 (hPC2; tested form: TFA or HCl) was 2.05 µM, the IC50 (furin; tested form: TFA or HCl) was 0.279 µM and the IC50 (hPC1/3; tested form: TFA or HCl) was 0.049 µM. It also gave an IC50 (hPC7; tested form: TFA or HCl) of 4.05 µM.

Where two headings read alike, the source gives them in different places.
